ChEMBL document CHEMBL1143243, “Design, synthesis, evaluation, and crystallographic-based structural studies of HIV-1 protease inhibitors with reduced response to the V82A mutation” (J Med Chem, 2008)

By UniProt entry, the sequences of proteins in these tests, tags left out.
UniProt Q72874, entry or part of it V82A: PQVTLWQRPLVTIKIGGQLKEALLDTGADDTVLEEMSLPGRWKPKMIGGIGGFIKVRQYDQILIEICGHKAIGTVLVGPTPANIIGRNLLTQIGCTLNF

Target: Human immunodeficiency virus type 1 protease (Human immunodeficiency virus 1, UniProt Q72874, V82A)
Test: Binding affinity to HIV1 protease V82A mutant

SMILES: CC(C)[C@H](NC(=O)N(C)Cc1ccccn1)C(=O)N[C@@H](Cc1ccccc1)[C@H](O)[C@@H](O)[C@H](CC1CCCCC1)NC(=O)[C@@H](NC(=O)N(C)Cc1ccccn1)C(C)C
- Ki: 14 nM
